PubChem BioAssay AID624099, ICCB-Longwood, 2012

Aim: 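Human genes that papillomavirus E2 requires to repress the HPV18 LCR promoter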 (primary screen)
System: human C33A cervical carcinoma cells (HPV-negative) stably expressing BPV1 E2 and an HPV18 LCR luciferase reporter
Reagents: siRNA pool against human genes, 40 nM
Time to read-out: 72 h
Detection: 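HPV18 LCR reporter light per well, converted to plate-wise z-scores that exclude control wells, and averaged over triplicate plates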
Direction: mean z-score and z-score: higher = stronger reporter signal, weaker E2 silencing
Rule for the call: 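Hit if mean z-score reaches 2 and two or more of three replicate z-scores also reach 2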
This is one part, drawn at random, of about 21,000 reagents tested. Over the whole deposit, 497 (2.4%) got an active call. 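Higher z means weaker E2 silencing; only reporter increases were scored, and knock-downs that hurt cell survival may mask genuine repressor factors.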

no.	gene	mean z-score	z-score, replicate A	z-score, replicate B	z-score, replicate C	outcome
1	CTSF	-0.79	-0.67	-0.93	-0.78	inactive
2	CD302	1.39	1.44	1.34	1.38	inactive
3	FYCO1	0.42	0.65	0.19	0.43	inactive
4	EPDR1	1.19	1.17	1.32	1.08	inactive
5	RPIA	1.58	1.79	1.1	1.85	inactive
6	NAMPT	-0.41	-0.59	-0.59	-0.06	inactive
7	GJB4	0.3	0.16	0.4	0.33	inactive
8	GTPBP8	-0.6	-0.72	-0.7	-0.37	inactive
9	SNX1	0.47	0.65	0.21	0.54	inactive
10	PIERCE1	-0.28	-0.63	-0.37	0.16	inactive
11	FIBIN	-0.34	-0.36	-0.4	-0.27	inactive
12	AMIGO1	0.01	0.2	-0.02	-0.16	inactive
13	FUT6	-0.05	-0.04	-0.5	0.4	inactive
14	COASY	1.15	1.95	0.71	0.8	inactive
15	COX4I1	0.21	0.31	0.28	0.03	inactive
16	LOC388549 (retired record)	0.18	0.1	0.42	0.03	inactive
17	MYMK	0.05	-0.02	0.09	0.07	inactive
18	PLEKHG5	-0.3	-0.47	-0.4	-0.02	inactive
19	VPS37A	-0.31	-0.06	-0.15	-0.73	inactive
20	MYEF2	0.27	-0.21	1.13	-0.1	inactive
21	SPRED2	1.11	1.18	1.26	0.9	inactive
22	ZNF561	-1.32	-1.43	-1.07	-1.47	inactive
23	PSMB6	-0.21	-0.02	-0.38	-0.22	inactive
24	ZNF22	-0.81	-0.38	-1.2	-0.85	inactive

Reprinted from the entries so far for reference:
no.	gene	mean z-score	z-score, replicate A	z-score, replicate B	z-score, replicate C	outcome
12	AMIGO1	0.01	0.2	-0.02	-0.16	inactive
13	FUT6	-0.05	-0.04	-0.5	0.4	inactive
14	COASY	1.15	1.95	0.71	0.8	inactive
15	COX4I1	0.21	0.31	0.28	0.03	inactive
16	LOC388549 (retired record)	0.18	0.1	0.42	0.03	inactive

The listing continues:
no.	gene	mean z-score	z-score, replicate A	z-score, replicate B	z-score, replicate C	outcome
25	C4orf33	0.64	0.07	0.78	1.07	inactive
26	RPL21	-2.35	-2.38	-2.51	-2.16	inactive
27	PRXL2C	0.97	0.77	1.2	0.96	inactive
28	PTS	-0.21	-0.25	-0.1	-0.28	inactive
29	ALG8	-0.32	-0.24	-0.74	0.01	inactive
30	UBE2N	-0.42	-0.28	-0.68	-0.31	inactive
31	TRIM5	-0.61	-0.49	-1	-0.34	inactive
32	IMPDH2	0.5	1.19	0.22	0.11	inactive
33	LOC387789 (retired record)	0.09	0.39	0.07	-0.2	inactive
34	POFUT2	-0.03	0.02	-0.02	-0.1	inactive
35	CCDC141	-1	-0.71	-1.23	-1.07	inactive
36	SLC10A3	-0.5	-0.61	-0.45	-0.45	inactive
37	FAM74A1	-0.42	-0.6	-0.45	-0.22	inactive
38	MBD4	-1.3	-1.37	-1.11	-1.41	inactive
39	SP100	-0.61	-0.97	-0.5	-0.35	inactive
40	NFRKB	0.33	0.43	0.26	0.31	inactive
41	CIMAP1C	0.07	0.53	-0.04	-0.28	inactive
42	LOC340089	4.17	3.68	4.06	4.76	active
43	DLG4	-0.54	-0.71	-0.66	-0.23	inactive
44	ULBP1	-0.51	-0.29	-0.61	-0.62	inactive
45	HS3ST3B1	0.46	0.53	0.35	0.51	inactive
46	OR5B21	-0.09	-0.12	-0.08	-0.07	inactive
47	LOC391144 (retired record)	0.99	1.5	0.72	0.75	inactive
48	ZNF302	-1.31	-1.3	-1.38	-1.26	inactive
49	KAAG1	1.46	1.52	1.22	1.63	inactive
50	TAS1R2	-1.43	-1.48	-1.81	-1.01	inactive
51	HMGN2	1.47	2.45	0.77	1.19	inactive
52	SLC20A2	-0.61	-0.45	-0.54	-0.84	inactive
53	KCNH5	0.21	0.34	0.17	0.12	inactive
54	LOC401915 (retired record)	0.39	0.35	0.63	0.18	inactive
55	GNPTG	0.72	1.1	0.37	0.68	inactive
56	LOC400749 (retired record)	0.4	0.52	0.44	0.25	inactive
57	HMG20A	-0.76	-0.73	-1.08	-0.48	inactive
